Pooled drug test results. Numbers come from NIAID ChemDB, via PubChem.

Shared fields: growth or infection tests; agent: Mycobacterium tuberculosis

MIC bound: limit read from a one-dose screen.

| compound | strain or isolate | tested at | endpoint | read by | changes | value |
|---|---|---|---|---|---|---|
| O=C(O)c1c2n(c3cc(N4CCC(n5c(=O)[nH]c6cc(Cl)ccc65)CC4)c(F)cc3c1=O)CS2 | H37Rv |  | MIC | agar |  | 1.56 µM |
| CCCCc1nc(Cl)c(/C=N/NC(N)=S)n1CCCN1CCN(C/C=C/c2ccccc2)CC1 | H37Rv |  | MIC | agar |  | 6.25 µg/mL |
| O=C1C=CC2NC(c3cccs3)Nc3cccc1c32 | H37Rv | 128 µg/mL | inhibition | BACTEC |  | 97% |
| COc1ccccc1/C=N/N=c1\scc(-c2cc3cc(Br)ccc3oc2=O)n1Cc1ccccc1 | H37Rv |  | MIC |  |  | >6.25 µg/mL |
| Clc1ccc(-n2cc(C3CC(c4ccc(-c5ccccc5)cc4)=NN3)c(-c3ccccc3)n2)cc1 | H37Rv |  | MIC | resazurin |  | 50 µg/mL |
| Cc1c2c(cc3c1C(=O)C(=O)C([C@@H](C)CO)=C3O)C(C)(C)CCC2 | H37Rv | 6.25 µg/mL | inhibition | resazurin |  | -19% |
| CO[C@H]1/C=C/O[C@@]2(C)Oc3c(C)c(O)c4c(O)c(c5c(c4c3C2=O)NC2(CCN(CC(C)C)CC2)N=5)=NC(=O)/C(C)=C\C=C\[C@H](C)[C@H](O)[C@@H](C)[C@@H](O)[C@@H](C)[C@H](OC(C)=O)[C@@H]1C | 9 (rifampicin-resistant) |  | MIC |  |  | >2 µg/mL |
| Cc1ccc(-n2nnnc2SSc2nnnn2-c2ccc(C)cc2)cc1 | H37Rv |  | MIC |  |  | 250 µM |
| CO[C@H]1/C=C/O[C@@]2(C)Oc3c(C)c(O)c4c(O)c(c(/C=N/N5CCN(C)CC5)c(O)c4c3C2=O)NC(=O)/C(C)=C\C=C\[C@H](C)[C@H](O)[C@@H](C)[C@@H](O)[C@@H](C)[C@H](OC(C)=O)[C@@H]1C | 05001 (H37RV) |  | MIC |  |  | 0.8 µg/mL |
| CC1(CCC2C=CCC2)CCCNC1=S | H37Rv | 12.5 µg/mL | inhibition | BACTEC |  | 26% |
| O=Cc1coc2ccc(F)cc2c1=O | My 331/88 |  | MIC |  |  | 500 µM |
| C=C[C@H](OC(C)=O)c1ccc(OC(C)=O)cc1 | H37Ra |  | MIC |  |  | 0.1 µg/mL |
| CCOc1cc(/C=N/N=c2\scc(-c3cc4ccccc4oc3=O)n2Cc2ccccc2)ccc1O | H37Rv |  | MIC |  |  | >6.25 µg/mL |
| NC(=O)C1C2CC3OC(=O)C1C3C2 | H37Rv | 12.5 µg/mL | inhibition | BACTEC |  | 18% |
| NC(=S)NN=C1/C(=C/c2ccco2)CNC/C1=C\c1ccco1 | H37Rv |  | MIC | agar / visual reading |  | 3.125 µg/mL |
| Nc1nc(-c2cccc([N+](=O)[O-])c2)c(N=Nc2ccccc2)s1 | H37Rv | 6.25 µg/mL | inhibition | BACTEC |  | 0% |
| CC[C@H]1OC(=O)[C@H](C)C(=O)[C@H](C)[C@@H](O[C@@H]2O[C@H](C)C[C@H](N(C)C)[C@H]2O)[C@](C)(OC)C[C@@H](C)C(=O)[C@H](C)[C@H]2N(NCCCc3ccnc4ccccc34)C(=O)O[C@]12C | Isolate 900145 |  | MIC |  |  | 40 µg/mL |
| O=C(NCCOc1ccc(Br)cc1)c1cc([N+](=O)[O-])cc(C(F)(F)F)c1 | H37Rv |  | MIC90 | resazurin |  | 1 µg/mL |
| Cc1ccc(-c2nn(-c3ccc(Cl)cc3)cc2C2CC(c3ccc4c(c3)CCO4)=NN2)cc1 | H37Rv |  | MIC | resazurin |  | 50 µg/mL |
| CCOC(=O)c1nc(C)c2c(c1N)C(=O)N(Cc1ccccc1)C2O | H37Rv-MA |  | MIC90 | resazurin / visual reading |  | >10 µM |
| Cc1cc2c(cc1C)[n+](=O)c(C#N)c(Cl)n2[O-] | H37Rv |  | MIC |  |  | 1.56 µg/mL |
| O=C1CN(c2cccc(Cl)c2)C(=O)CN1/N=C/c1ccco1 | H37Rv | 12.5 µg/mL | inhibition | BACTEC |  | 0% |
| Clc1ccc(-c2nn(-c3ccc(Cl)cc3)cc2C2CC(c3ccc4c(c3)CCO4)=NN2)cc1 | H37Rv |  | MIC | resazurin |  | 25 µg/mL |
| CCOc1c(N=Nc2ccc(Cl)cc2Cl)c(C)nn1C(=S)S | PAS-R |  | MIC |  |  | 12.5 µg/mL |
| C[C@]1(COc2ccc(N3CCC(Oc4ccc(OC(F)(F)F)cc4)CC3)cc2)Cn2cc([N+](=O)[O-])nc2O1 | 49 strains (SM-susceptible) |  | MIC90 |  |  | 0.012 µg/mL |
| O=S1(=O)C[C@H](O)[C@@H](O)CS1 | H37Rv |  | MIC bound | BACTEC |  | >12.5 µg/mL |
| CCCCc1nc(Cl)c(/C=N/NC(N)=S)n1CCCN1CCN(Cc2ccc3c(c2)OCO3)CC1 | H37Rv |  | MIC | agar |  | 12.5 µg/mL |
| Fc1ccc(N=C2/C(=C/c3ccco3)CNC/C2=C\c2ccco2)cc1F | H37Rv |  | MIC | agar / visual reading |  | 0.39 µg/mL |
| CO[C@H]1/C=C/O[C@@]2(C)Oc3c(C)c(O)c4c(O)c(c(/C=N/N5CCN(C)CC5)c(O)c4c3C2=O)NC(=O)/C(C)=C\C=C\[C@H](C)[C@H](O)[C@@H](C)[C@@H](O)[C@@H](C)[C@H](OC(C)=O)[C@@H]1C | H37Rv |  | MIC | broth dilution / visual reading |  | 0.008 µg/mL |
| CC1(C)OC2/C(=N\O)C3COC(O3)C2O1 | H37Rv | 12.5 µg/mL | inhibition | BACTEC |  | 19% |
| Ic1ccc(-n2nnnc2SSc2nnnn2-c2ccc(I)cc2)cc1 | H37Rv |  | MIC |  |  | 125 µM |
| O=C(O)c1c2n(c3cc(N4CCC5(CC4)OCCO5)c([N+](=O)[O-])cc3c1=O)CS2 | H37Rv |  | MIC | agar |  | 0.09 µM |
| NNC(=O)c1ccncc1 | H37Rv |  | MIC | agar / visual reading |  | 0.1 µg/mL |
| O=C(O)CN1CCN(CC(=O)N2CCN(C(=O)OCc3ccccc3)CC2)CCN(CC(=O)O)CCN(CC(=O)N2CCN(C(=O)OCc3ccccc3)CC2)CC1 | H37Rv | 6.25 µg/mL | inhibition | resazurin |  | 10% |
| CCCCc1nc(Cl)c(/C=N/NC(N)=S)n1CCCN1CCN(c2ccccc2Cl)CC1 | H37Rv |  | MIC | agar |  | 25 µg/mL |
| N#Cc1c(Cl)n([O-])c2ccc(-c3ccc([N+](=O)[O-])cc3)cc2[n+]1=O | H37Rv |  | EC50 |  |  | <6.25 µg/mL |
| Cc1c(N=Nc2cccc(F)c2)c(-c2ccccc2)nn1C(=S)S | H37Rv |  | MIC bound | BACTEC |  | ≤128 µg/mL |
| COc1ccccc1/C=N/N=c1\scc(-c2cc3ccccc3oc2=O)n1Cc1ccccc1 | H37Rv | 6.25 µg/mL | inhibition |  |  | <11% |
| COc1ccc(/C(=C\n2ccnc2)C(=O)c2ccc(OC)c(OC)c2)cc1 | H37Rv |  | MIC bound | resazurin |  | >6.25 µg/mL |
| N#Cc1c(N2CCN(c3ccc([N+](=O)[O-])cc3)CC2)[n+](=O)c2ccc(Cl)cc2n1[O-] | H37Rv |  | EC50 |  |  | <6.25 µg/mL |
| CC1COc2c(N3CCN(C)CC3)c(F)cc3c(=O)c(C(=O)O)cn1c23 | 18 isolates |  | MIC90 |  |  | 2 µg/mL |
| Cc1ccc(-n2nnnc2SSc2nnnn2-c2ccc(C)c(C)c2)cc1C | H37Rv |  | MIC |  |  | 250 µM |
| CC(C)OC(=O)c1cc[n+](CC(=O)c2ccc(F)cc2)cc1.[Br-] | H37Rv |  | MIC | resazurin |  | 1 µg/mL |
| Clc1ccc2c(c1)Nc1ccccc1S2 | H37Rv |  | MIC bound | BACTEC |  | ≤12.5 µg/mL |
| CO[C@H]1/C=C/O[C@@]2(C)Oc3c(C)c(O)c4c(O)c(c(/C=N/N5CCN(C)CC5)c(O)c4c3C2=O)NC(=O)/C(C)=C\C=C\[C@H](C)[C@H](O)[C@@H](C)[C@@H](O)[C@@H](C)[C@H](OC(C)=O)[C@@H]1C | Harlingen (Ser531Trp) |  | MIC |  |  | >32 µg/mL |
| COc1cc2c(cc1Cl)[n+]([O-])c(C#N)c(N)[n+]2[O-] | H37Rv |  | EC50 |  |  | <6.25 µg/mL |
| O=Cc1coc2ccc([N+](=O)[O-])cc2c1=O | My 331/88 |  | MIC |  |  | 1000 µM |
| NCCC(O)C(N)CC(=O)NC1CNC(=O)C(C2CCN=C(N)N2)NC(=O)/C(=C/NC(N)=O)NC(=O)C(CO)NC(=O)C(CO)NC1=O | 05001 (H37RV) |  | MIC |  |  | 12.5 µg/mL |
| N#Cc1c(N2CCN(c3ccc([N+](=O)[O-])cc3)CC2)[n+](=O)c2ccccc2n1[O-] | H37Rv | 6.25 µg/mL | inhibition |  |  | 100% |
| CC(C)(C)c1ccc(NS(=O)(=O)c2ccc(N)cc2)cc1Br | H37Rv |  | MIC bound | BACTEC |  | >12.5 µg/mL |
| O=C(O)c1c2n(c3cc(N4CCN(C(c5ccccc5)c5ccc(Cl)cc5)CC4)c([N+](=O)[O-])cc3c1=O)CS2 | H37Rv |  | MIC | agar |  | 11.1 µM |
| CC(C)C(NC(=O)C1CCCN1C(=O)OCc1ccccc1)C(=O)NN | H37Rv | 12.5 µg/mL | inhibition | BACTEC |  | 9% |
| Cc1noc(-c2nc(C)c3c(c2N)C(=O)N(Cc2cccc(Cl)c2)C3=O)n1 | H37Rv-MA |  | MIC90 | resazurin / visual reading | Ala317Thr | >10 µM |
| CN1CCN(c2cc3c(cc2[N+](=O)[O-])c(=O)c(C(=O)O)c2n3CS2)CC1c1ccccc1 | H37Rv |  | MIC | agar |  | 3.45 µM |
| CCC1C[N+]2=C(c3cc(OC)c(OC)cc3CC2)c2c1cc1n2CCc2cc(OC)c(OC)cc2-1 | H37Rv |  | MIC bound | BACTEC |  | ≤128 µg/mL |
| CCCCc1nc(Cl)c(/C=N/NC(N)=S)n1CCCN1CCN(c2ccc(C#N)cc2)CC1 | H37Rv |  | MIC | agar |  | 50 µg/mL |
| Cc1ccc(-c2n[nH]c(=O)n2-n2c(C)ccc2C)cc1 | 8546 |  | MIC |  |  | 5.16 µg/mL |
| CC(C)C[C@@H]1NC(=O)[C@H](Cc2c[nH]c3ccccc23)NC(=O)[C@@H](CCCN)NC(=O)[C@H](CC(=O)NCC2CCCCC2)NC(=O)[C@H](C(C)C)NC(=O)[C@@H](CC(C)C)NC1=O | H37Rv |  | MIC | resazurin |  | 10 µM |
| COc1cc2c(cc1Cl)n([O-])c(C#N)c(N1CCN(c3ccc([N+](=O)[O-])cc3)CC1)[n+]2=O | H37Rv |  | MIC |  |  | 0.39 µg/mL |
| COc1ccc(/C=N/N=c2\scc(-c3cc4cc(Br)ccc4oc3=O)n2Cc2ccccc2)cc1OC | H37Rv | 6.25 µg/mL | inhibition |  |  | <11% |
| CCCCc1nc(Cl)c(/C=N/NC(N)=S)n1CCCN1CCN(Cc2ccc(Cl)cc2)CC1 | H37Rv |  | MIC | agar |  | 50 µg/mL |
| Cc1cc2nc(C#N)c(N3CCN(c4ccc([N+](=O)[O-])cc4)CC3)nc2cc1C | H37Rv |  | EC50 |  |  | >6.25 µg/mL |
| COC(=O)CN1C(=O)OC(c2ccccc2)C1=O | H37Rv | 12.5 µg/mL | inhibition | BACTEC |  | 0% |
| Clc1ccc(-n2cc(C3CC(c4ccc(-c5ccccc5)cc4)=NN3)c(-c3cccs3)n2)cc1 | H37Rv |  | MIC | resazurin |  | 1.56 µg/mL |
| CN[C@@H]1[C@H](O[C@H]2[C@H](O[C@H]3[C@H](O)[C@@H](O)[C@H](N=C(N)N)[C@@H](O)[C@@H]3N=C(N)N)O[C@@H](C)[C@]2(O)C=O)O[C@@H](CO)[C@H](O)[C@H]1O | H37Rv (streptomycin-susceptible) |  | MIC |  |  | <4 µg/mL |
| O=Cc1coc2ccc(Br)cc2c1=O | My 331/88 |  | MIC |  |  | 125 µM |
| N#Cc1c(N)[n+]([O-])c2ccc(Cl)cc2[n+]1[O-] | H37Rv |  | EC50 |  |  | <6.25 µg/mL |
| O=C(O)c1c2n(c3cc(N4CCC(N5CCCCC5)CC4)c([N+](=O)[O-])cc3c1=O)CS2 | H37Rv |  | MIC | agar |  | 1.75 µM |
| C=C1CC[C@H]2C(C)=CC[C@@H]3[C@H](OC(=O)[C@H]3COC)[C@@H]12 | H37Rv | 12.5 µg/mL | inhibition | BACTEC |  | 3% |
| O=c1oc2ccccc2cc1-c1cs/c(=N\N=C\c2cc([N+](=O)[O-])ccc2O)n1Cc1ccccc1 | H37Rv |  | MIC |  |  | >6.25 µg/mL |
| NNC(=O)c1ccc(NC(=O)CSc2nc3ccccc3s2)cc1 | H37Rv |  | MIC bound | BACTEC |  | >12.5 µg/mL |
| NNC(=O)N=C1/C(=C/c2ccco2)CNC/C1=C\c1ccco1 | H37Rv |  | MIC | agar / visual reading |  | 6.25 µg/mL |
| COc1ccc(-c2nn(-c3ccc(Cl)cc3)cc2C2CC(c3ccc(-c4ccccc4)cc3)=NN2)cc1 | H37Rv |  | MIC | resazurin |  | 6.25 µg/mL |
| O=c1[nH][nH]c(=O)c(Cl)c1Cl | H37Rv | 6.25 µg/mL | inhibition | resazurin |  | -23% |
| CC1CN(c2cc3c(cc2F)c(=O)c(C(=O)O)c2n3CS2)CC(C)O1 | H37Rv |  | MIC | agar |  | 4.28 µM |

A second listing of 8 rows from above:

compound | strain or isolate | tested at | endpoint | read by | changes | value
CC(C)C(NC(=O)C1CCCN1C(=O)OCc1ccccc1)C(=O)NN | H37Rv | 12.5 µg/mL | inhibition | BACTEC |  | 9%
N#Cc1c(Cl)n([O-])c2ccc(-c3ccc([N+](=O)[O-])cc3)cc2[n+]1=O | H37Rv |  | EC50 |  |  | <6.25 µg/mL
COc1ccccc1/C=N/N=c1\scc(-c2cc3ccccc3oc2=O)n1Cc1ccccc1 | H37Rv | 6.25 µg/mL | inhibition |  |  | <11%
NC(=O)C1C2CC3OC(=O)C1C3C2 | H37Rv | 12.5 µg/mL | inhibition | BACTEC |  | 18%
O=C(O)c1c2n(c3cc(N4CCC5(CC4)OCCO5)c([N+](=O)[O-])cc3c1=O)CS2 | H37Rv |  | MIC | agar |  | 0.09 µM
Cc1ccc(-n2nnnc2SSc2nnnn2-c2ccc(C)c(C)c2)cc1C | H37Rv |  | MIC |  |  | 250 µM
NNC(=O)c1ccncc1 | H37Rv |  | MIC | agar / visual reading |  | 0.1 µg/mL
O=C(O)c1c2n(c3cc(N4CCN(C(c5ccccc5)c5ccc(Cl)cc5)CC4)c([N+](=O)[O-])cc3c1=O)CS2 | H37Rv |  | MIC | agar |  | 11.1 µM

MIC50, MIC90 and the like: level of inhibition, or share of isolates inhibited. Rows are shuffled and stem from different studies. Percent inhibition refers to the dose given; in toxicity tests it is the harm to the cells. ECn: concentration that inhibits the pathogen or its effect by n%. Blank or dashed fields: not listed here.